# Single amino acid changes in Zika NS2B-NS3 and viral growth

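Mutant virus pools were grown in human Huh-7.5 cells. Deep sequencing gave the change in frequency of each mutant relative to wild type, averaged over three replicate libraries (two for positions 207-308). The study looked for pockets that tolerate few changes, as a guide for inhibitor design.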

The scanned region of Zika virus MR766 is shown below (positions 1-308): NS2B is 2-131, NS3 begins at position 132.
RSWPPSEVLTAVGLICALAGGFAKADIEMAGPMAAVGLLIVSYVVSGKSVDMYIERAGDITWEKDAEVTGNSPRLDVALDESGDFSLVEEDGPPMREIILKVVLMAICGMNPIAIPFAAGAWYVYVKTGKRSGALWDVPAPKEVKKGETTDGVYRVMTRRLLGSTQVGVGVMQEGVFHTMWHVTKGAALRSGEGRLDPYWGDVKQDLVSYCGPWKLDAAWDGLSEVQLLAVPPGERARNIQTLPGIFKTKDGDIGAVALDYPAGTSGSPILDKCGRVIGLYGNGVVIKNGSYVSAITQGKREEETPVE

Values are log2 effects on growth: 0 is wild type, lower means poorer growth.
Each line gives the wild-type residue and site, then new residues with their values.
Position 1 still belongs to NS2A. In the paper, -1 or higher counts as tolerated.
Positions 1-103, 104-206 and 207-308 were made and measured as separate libraries.
Stop codons (*) centre on -7 and mark the level of dead virus.
Values above 0 are not proof of better growth: six high scorers were tested one by one, five grew less well than wild type and one about as well.

D221: * -7.34; A -6.44; C -5.24; E -6.09; F -5.88; G -6.31; H -6.18; I -5.75; K -5.08; L -6.58; M -5.22; N -6.17; P -6.51; Q -4.73; R -6.74; S -7.10; T -6.49; V -6.78; W -4.62; Y -6.82
G222: * -8.14; A -6.75; C -3.69; D -5.92; E -4.58; F 0.55; H 0.31; I -5.53; K -1.62; L -4.51; M 1.16; N -1.13; P -6.06; Q -0.90; R -2.52; S -1.68; T -1.90; V -7.22; W -6.07; Y -0.26
L223: * -7.00; A -0.05; C 0.55; D -1.33; E -0.75; F 0.08; G -1.48; H -0.23; I -0.54; K -5.55; M -0.39; N -1.60; P -5.96; Q -1.49; R -7.14; S -1.00; T -0.36; V -0.57; W -0.37; Y -0.26
S224: * -7.57; A -4.25; C -6.14; D -5.40; E -3.08; F -5.63; G -3.41; H -4.68; I -6.63; K -5.64; L -7.16; M -5.63; N -0.09; P -6.34; Q -2.42; R -7.40; T -1.04; V -6.75; W -5.75; Y -5.74
E225: * -8.59; A -4.38; C -3.38; D -6.28; F -5.86; G -6.71; H -3.10; I -5.93; K -4.63; L -7.51; M -6.07; N -5.31; P -4.17; Q -2.91; R -7.00; S -4.46; T -5.94; V -4.22; W -5.48; Y -4.14
V226: * -6.87; A -5.35; C -5.41; D -5.62; E -5.41; F -5.70; G -6.18; H -4.73; I -4.93; K -4.31; L -6.81; M -5.39; N -4.94; P -5.77; Q -4.96; R -6.47; S -6.48; T -6.26; W -4.95; Y -5.32
Q227: * -8.02; A -6.52; C -5.05; D -4.92; E -6.57; F -5.06; G -6.15; H -7.12; I -5.48; K -7.35; L -7.91; M -6.38; N -6.04; P -7.74; R -5.76; S -7.24; T -7.26; V -6.53; W -5.61; Y -5.36
L228: * -5.83; A -3.35; C -4.88; D -4.45; E -3.63; F -3.97; G -4.93; H -4.70; I -4.17; K -4.19; M -2.81; N -5.41; P -5.65; Q -3.53; R -5.88; S -6.02; T -5.28; V -5.91; W -4.16; Y -4.76
L229: * -4.94; A -2.42; C -3.20; D -1.35; E -1.41; F -3.35; G -3.58; H -0.34; I -2.38; K -6.39; M -0.14; N -0.82; P -3.04; Q -1.06; R -3.54; S -3.07; T -2.83; V -3.68; W -2.80; Y -0.50
A230: * -5.95; C -1.72; D -5.50; E -4.86; F -3.97; G -6.21; H -3.17; I -3.56; K -4.70; L -5.28; M -4.24; N -4.13; P -5.70; Q -4.68; R -5.70; S -6.12; T -3.15; V -0.42; W -4.33; Y -4.12
V231: * -7.14; A -3.39; C -0.83; D -4.71; E -5.03; F -1.91; G -5.93; H -3.42; I 0.72; K -4.16; L 1.43; M -3.20; N -3.88; P -4.04; Q -3.03; R -5.36; S -5.27; T -4.48; W -4.46; Y -2.57
P232: * -6.44; A 0.56; C 0.01; D -4.96; E -3.32; F -4.39; G -3.03; H -6.09; I -0.37; K -4.63; L -1.00; M -1.05; N -5.05; Q 0.18; R -5.94; S 0.30; T -0.44; V 0.04; W -3.58; Y -4.64
P233: * -7.14; A -6.25; C -5.40; D -5.37; E -5.36; F -5.91; G -6.24; H -5.91; I -5.57; K -5.26; L -5.20; M -5.01; N -5.62; Q -5.12; R -6.72; S -7.07; T -6.60; V -6.11; W -5.34; Y -5.53
G234: * -7.20; A -1.46; C -2.81; D -4.98; E -5.42; F -4.02; H -1.08; I -5.03; K -1.49; L -6.22; M -4.88; N -0.68; P -4.86; Q -4.08; R 0.07; S -1.94; T -4.80; V -6.45; W -2.22; Y -3.77
E235: * -8.68; A -0.69; C -2.49; D 0.53; F -5.45; G -0.66; H -1.69; I -5.30; K -1.31; L -3.72; M -3.68; N -0.96; P -5.87; Q -1.36; R -3.24; S -1.20; T -1.94; V -2.08; W -5.27; Y -5.66

The opening 14 entries, copied out:

substitution,log2 growth effect
D221*,-7.34
D221A,-6.44
D221C,-5.24
D221E,-6.09
D221F,-5.88
D221G,-6.31
D221H,-6.18
D221I,-5.75
D221K,-5.08
D221L,-6.58
D221M,-5.22
D221N,-6.17
D221P,-6.51
D221Q,-4.73

The measurements come from Ni et al. 2025 (doi:10.1038/s41467-025-63602-z).